Reference: article PMC11377810, “A Gaussia luciferase reporter assay for the evaluation of coronavirus Nsp5/3CLpro activity” (Scientific Reports, 2024)

Molecular target: SARS-CoV-2 Nsp5 (Severe acute respiratory syndrome coronavirus 2, UniProt P0DTD1)

COc1cccc2[nH]c(C(=O)N[C@@H](CC(C)C)C(=O)N[C@@H](C[C@@H]3CCNC3=O)C(=O)CO)cc12 [PF-00835231]
effect on Nsp5 at non-cytotoxic concentrations: did not have a significant effect
